Results deposited as PubChem BioAssay AID624099 (ICCB-Longwood, 2012)
Test: 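Human genes that papillomavirus E2 requires to repress the HPV18 LCR promoter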 (primary screen). Cell system: human C33A cervical carcinoma cells (HPV-negative) stably expressing BPV1 E2 and an HPV18 LCR luciferase reporter. Knock-down reagent: siRNA pool against human genes, 40 nM. Time to read-out: 72 h. Read-out: 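HPV18 LCR reporter light per well, converted to plate-wise z-scores that exclude control wells, and averaged over triplicate plates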. Direction: mean z-score and z-score: higher = stronger reporter signal, weaker E2 silencing. Rule for the call: 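Mean z ≥ 2 together with z ≥ 2 in two or more of the three replicates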.
Here is one part, drawn at random, of about 21,000 reagents. 497 of them (2.4%) were called active. 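Higher z means weaker E2 silencing; only reporter increases were scored, and knock-downs that hurt cell survival may mask genuine repressor factors.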 Entries without a mark were called inactive. Reagent sequences are not shown.

UBE3C (ubiquitin protein ligase E3C)
- mean z-score: 1.89
- z-score, replicate A: 2.1
- z-score, replicate B: 1.78
- z-score, replicate C: 1.78

PCTP (phosphatidylcholine transfer protein)
- mean z-score: -1.44
- z-score, replicate A: -0.61
- z-score, replicate B: -1.72
- z-score, replicate C: -1.99

GATA4 (GATA binding protein 4)
- mean z-score: -1.26
- z-score, replicate A: -0.93
- z-score, replicate B: -1.17
- z-score, replicate C: -1.69

CCDC17 (coiled-coil domain containing 17)
- mean z-score: 0.37
- z-score, replicate A: -0.15
- z-score, replicate B: 0.69
- z-score, replicate C: 0.57

GNAT3 (G protein subunit alpha transducin 3)
- mean z-score: 0.82
- z-score, replicate A: 0.74
- z-score, replicate B: 0.97
- z-score, replicate C: 0.75

LINC00689 (long independently transcribed non-coding RNA 689)
- mean z-score: -0.87
- z-score, replicate A: -0.86
- z-score, replicate B: -0.79
- z-score, replicate C: -0.95

SEPTIN8 (septin 8)
- mean z-score: 0.34
- z-score, replicate A: 0.43
- z-score, replicate B: 0.33
- z-score, replicate C: 0.26

SELENOP (selenoprotein P)
- mean z-score: 1.25
- z-score, replicate A: 0.98
- z-score, replicate B: 1.49
- z-score, replicate C: 1.27

HSD17B7P2 (hydroxysteroid 17-beta dehydrogenase 7 pseudogene 2)
- mean z-score: 1.37
- z-score, replicate A: 1.28
- z-score, replicate B: 1.36
- z-score, replicate C: 1.48

SCN7A (sodium voltage-gated channel alpha subunit 7)
- mean z-score: -0.19
- z-score, replicate A: -0.08
- z-score, replicate B: -0.36
- z-score, replicate C: -0.12

ZNF655 (zinc finger protein 655)
- mean z-score: 0.72
- z-score, replicate A: 0.8
- z-score, replicate B: 0.77
- z-score, replicate C: 0.59

RGS18 (regulator of G protein signaling 18)
- mean z-score: -0.07
- z-score, replicate A: 0.1
- z-score, replicate B: -0.35
- z-score, replicate C: 0.05

PDE4D (phosphodiesterase 4D)
- mean z-score: -0.8
- z-score, replicate A: -1.11
- z-score, replicate B: -0.82
- z-score, replicate C: -0.45

ADAM11 (ADAM metallopeptidase domain 11)
- mean z-score: -1.98
- z-score, replicate A: -2.2
- z-score, replicate B: -2.02
- z-score, replicate C: -1.72

FZD6 (frizzled class receptor 6)
- mean z-score: 0.27
- z-score, replicate A: 0.4
- z-score, replicate B: 0.1
- z-score, replicate C: 0.31

ATP5F1D (ATP synthase F1 subunit delta)
- mean z-score: 1.93
- z-score, replicate A: 1.85
- z-score, replicate B: 1.71
- z-score, replicate C: 2.22

NAV3 (neuron navigator 3)
- mean z-score: 0.59
- z-score, replicate A: 0.39
- z-score, replicate B: 0.72
- z-score, replicate C: 0.64

AGTR1 (angiotensin II receptor type 1)
- mean z-score: -0.87
- z-score, replicate A: -0.98
- z-score, replicate B: -0.87
- z-score, replicate C: -0.75

NDUFC1 (NADH:ubiquinone oxidoreductase subunit C1)
- mean z-score: -0.58
- z-score, replicate A: -0.39
- z-score, replicate B: -0.7
- z-score, replicate C: -0.66

SYNJ2BP (synaptojanin 2 binding protein)
- mean z-score: 0.72
- z-score, replicate A: 0.49
- z-score, replicate B: 0.92
- z-score, replicate C: 0.75

SKAP1 (src kinase associated phosphoprotein 1)
- mean z-score: 1.98
- z-score, replicate A: 2.13
- z-score, replicate B: 2.04
- z-score, replicate C: 1.76

MARK4 (microtubule affinity regulating kinase 4)
- mean z-score: -0.71
- z-score, replicate A: -0.22
- z-score, replicate B: -0.98
- z-score, replicate C: -0.92

LOC387709 (retired record)
- mean z-score: -0.73
- z-score, replicate A: -1.03
- z-score, replicate B: -1.01
- z-score, replicate C: -0.16

SLC25A14
- mean z-score: -0.31
- z-score, replicate A: -0.3
- z-score, replicate B: -0.24
- z-score, replicate C: -0.41

MTARC2 (mitochondrial amidoxime reducing component 2)
- mean z-score: 0.58
- z-score, replicate A: 0.88
- z-score, replicate B: 0.4
- z-score, replicate C: 0.45

FBXO45 (F-box protein 45)
- mean z-score: 0.36
- z-score, replicate A: 0.63
- z-score, replicate B: 0.07
- z-score, replicate C: 0.38

ACAP1 (ArfGAP with coiled-coil, ankyrin repeat and PH domains 1)
- mean z-score: -1.34
- z-score, replicate A: -1.27
- z-score, replicate B: -1.54
- z-score, replicate C: -1.2
